Anti-infective test results gathered from many reports (values: NIAID ChemDB through PubChem).

All rows: growth or infection tests; agent: Mycobacterium avium complex; endpoint: MIC

Neighbouring rows are from separate reports.

| structure | strain or isolate | result |
|---|---|---|
| CC[C@H]1OC(=O)[C@H](C)[C@@H](OC2C[C@@](C)(OC)[C@@H](O)[C@H](C)O2)[C@H](C)[C@@H](O[C@@H]2O[C@H](C)C[C@H](N(C)C)[C@H]2O)C(C)(OC)C[C@@H](C)/C(=N\OCCCOc2ccccc2)[C@H](C)[C@@H](O)[C@]1(C)O | 20039 (clarithromycin-susceptible) | 1.56 µg/mL |
| NNC(=O)c1ccncc1 | 13-2732 | 0.32–0.4 µg/mL |
| CC[C@H]1OC(=O)[C@H](C)[C@@H](O[C@H]2C[C@@](C)(OC)[C@@H](OC(C)=O)[C@H](C)O2)[C@H](C)[C@@H](O[C@@H]2O[C@H](C)C[C@H](N(C)C)[C@H]2OC(=O)NN(C)Cc2ccccc2)C(C)(O)C[C@@H](C)/C(=N\OCCCC2CCCCC2)[C@H](C)[C@@H](O)[C@]1(C)O | 20092 (clarithromycin-resistant) | 12.5 µg/mL |
| CCc1c(CNc2cc(C)ccc2OC)cnc2nc(N)nc(N)c12 | NJ211 | ≤0.13 µg/mL |
| CC1(C)N=C(N)N=C(N)N1OCCCOc1cc(Cl)c(Cl)cc1Cl | 800 | 8 µg/mL |
| Cc1cccc(CSc2ncccn2)c1 | NJ211 | >12.8 µg/mL |
| NNC(=O)c1ccncc1 | N-961 (HIV+) | 2 µg/mL |
| Cc1onc(-c2ccccc2Cl)c1C(=O)N[C@@H]1C(=O)N2[C@@H]1SC(C)(C)[C@@H]2C(=O)O | CIPT 140310005 | 25 µg/mL |
| Cc1c(CNc2cc(C(F)(F)F)ccc2F)cnc2nc(N)nc(N)c12 | NJ168 | ≤0.13 µg/mL |
| COc1ccccc1CSc1ccncc1 | NJ211 | >12.8 µg/mL |
| OCCN=c1ssc2ccccc12 | ISS 486 | 4 µg/mL |
| CC[C@H]1OC(=O)[C@H](C)[C@@H](OC2C[C@@](C)(OC)[C@@H](O)[C@H](C)O2)[C@H](C)[C@@H](O[C@@H]2O[C@H](C)C[C@H](N(C)C)[C@H]2O)C(C)(O)C[C@@H](C)/C(=N\OCCC2CCCCC2)[C@H](C)[C@@H](O)[C@]1(C)O | 20096 | 50 µg/mL |
| C[C@@H]1CN(c2c(F)c(N)c3c(=O)c(C(=O)O)cn(C4CC4)c3c2F)C[C@H](C)N1 | N-966 (HIV+) | 1 µg/mL |
| NC[C@H]1O[C@H](O[C@H]2[C@H](O)[C@@H](O[C@H]3O[C@H](CO)[C@@H](O)[C@H](N)[C@H]3O)[C@H](N)C[C@@H]2N)[C@H](O)[C@@H](O)[C@@H]1O | CIPT 140310006 | 5 µg/mL |
| CCc1nc(N)nc(N)c1-c1ccc(Cl)cc1 | 1408 | 32 µg/mL |
| COc1ccc(C(F)(F)F)cc1NCc1cnc2nc(N)nc(N)c2c1C | NJ211 | ≤0.13 µg/mL |
| CC1(C)N=C(N)N=C(N)N1OCCCOc1cc(Cl)c(Cl)cc1Cl | DW15 | 8 µg/mL |
| CC1(C)S[C@@H]2[C@H](NC(=O)C(C(=O)O)c3ccccc3)C(=O)N2[C@H]1C(=O)O | CIPT 140310003 (smooth) | 50 µg/mL |
| CC[C@H]1OC(=O)[C@H](C)[C@@H](O[C@H]2C[C@@](C)(OC)[C@@H](O)[C@H](C)O2)[C@H](C)[C@@H](O[C@@H]2O[C@H](C)C[C@H](N(C)C)[C@H]2O)[C@](C)(O)C[C@@H](C)/C(=N\OC)[C@H](C)[C@@H](O)[C@]1(C)O | 20096 | >50 µg/mL |
| CCCNC(=O)OCCN=c1ssc2ccccc12 | AN2 | 16 µg/mL |
| Cc1cc(Br)cc(C)c1NCc1cnc2nc(N)nc(N)c2c1C | NJ168 | ≤0.13 µg/mL |
| CCCO/N=C1\[C@H](C)CC(C)(O)[C@H](O[C@@H]2O[C@H](C)C[C@H](N(C)C)[C@H]2O)[C@@H](C)[C@H](OC2C[C@@](C)(OC)[C@@H](O)[C@H](C)O2)[C@@H](C)C(=O)O[C@H](CC)[C@@](C)(O)[C@H](O)[C@H]1C | 20092 | >50 µg/mL |
| COc1cccc(CSc2ncnc3nc[nH]c23)c1 | NJ211 | >12.8 µg/mL |
| CCCCNC(=O)OCCN=c1ssc2ccccc12 | ATCC 15769 | 4 µg/mL |
| CO[C@H]1/C=C/O[C@@]2(C)Oc3c(C)c(O)c4c(=O)c(c5oc6cc(N7CCN(CC(C)C)CC7)cc(=O)c6nc5c4c3=C2O)NC(=O)/C(C)=C\C=C\[C@H](C)[C@H](O)[C@@H](C)[C@@H](O)[C@@H](C)[C@H](OC(C)=O)[C@@H]1C | N-978 (HIV+) | 0.1 µg/mL |
| CC[C@H]1OC(=O)[C@H](C)[C@@H](OC2C[C@@](C)(OC)[C@@H](O)[C@H](C)O2)[C@H](C)[C@@H](O[C@@H]2O[C@H](C)C[C@H](N(C)C)[C@H]2O)C(C)(O)C[C@@H](C)/C(=N\OCC2CCCCC2)[C@H](C)[C@@H](O)[C@]1(C)O | 20039 | 1.56 µg/mL |
| CC(C)(C)NC(=O)OCCN=c1ssc2ccccc12 | AN2 | 4 µg/mL |
| CC[C@H]1OC(=O)[C@H](C)[C@@H](OC2C[C@@](C)(OC)[C@@H](O)[C@H](C)O2)[C@H](C)[C@@H](O[C@@H]2O[C@H](C)C[C@H](N(C)C)[C@H]2O)C(C)(O)C[C@@H](C)/C(=N\OCc2ccccc2)[C@H](C)[C@@H](O)[C@]1(C)O | 20096 (clarithromycin-resistant) | >50 µg/mL |
| COc1ccc(/C(C)=N/NC(N)=S)cc1 | 101 | 0.125 µg/mL |
| CCCOc1ccc(NCc2cnc3nc(N)nc(N)c3c2C)cc1OC | NJ211 | ≤0.13 µg/mL |
| CN[C@@H]1[C@H](O[C@H]2[C@H](O[C@H]3[C@H](O)[C@@H](O)[C@H](N=C(N)N)[C@@H](O)[C@@H]3N=C(N)N)O[C@@H](C)[C@]2(O)C=O)O[C@@H](CO)[C@H](O)[C@H]1O | CIPT 140310003 (rough) | 6 µg/mL |
| CO[C@H]1/C=C/O[C@@]2(C)Oc3c(C)c(O)c4c(O)c(c5c(c4c3C2=O)NC2(CCN(CC(C)C)CC2)N=5)=NC(=O)/C(C)=C\C=C\[C@H](C)[C@H](O)[C@@H](C)[C@@H](O)[C@@H](C)[C@H](OC(C)=O)[C@@H]1C | 101 | 0.5 µg/mL |
| COc1ccccc1CSc1ncnc2nc[nH]c12 | NJ211 | >12.8 µg/mL |
| CC[C@H]1OC(=O)[C@H](C)[C@@H](OC2C[C@@](C)(OC)[C@@H](O)[C@H](C)O2)[C@H](C)[C@@H](O[C@@H]2O[C@H](C)C[C@H](N(C)C)[C@H]2O)C(C)(O)C[C@@H](C)/C(=N\OCCOc2ccccc2)[C@H](C)[C@@H](O)[C@]1(C)O | 20039 | 1.56 µg/mL |
| Clc1ccc(Sc2nc(Cl)nc3nc[nH]c23)cc1 | NJ211 | >12.8 µg/mL |
| CC[C@H]1OC(=O)[C@H](C)[C@@H](O[C@H]2C[C@@](C)(OC)[C@@H](OC(C)=O)[C@H](C)O2)[C@H](C)[C@@H](O[C@@H]2O[C@H](C)C[C@H](N(C)C)[C@H]2O)C(C)(O)C[C@@H](C)/C(=N\OCCCCOc2ccccc2)[C@H](C)[C@@H](O)[C@]1(C)O | 20039 (clarithromycin-susceptible) | 1.56 µg/mL |
| CC[C@H]1OC(=O)[C@H](C)[C@@H](OC2C[C@@](C)(OC)[C@@H](O)[C@H](C)O2)[C@H](C)[C@@H](O[C@@H]2O[C@H](C)C[C@H](N(C)C)[C@H]2O)C(C)(O)C[C@@H](C)/C(=N\OCCCCOc2ccccc2)[C@H](C)[C@@H](O)[C@]1(C)O | 20039 | 1.56 µg/mL |
| CCCCNC(=O)OCCn1sc2ccccc2c1=O | ISS 486 | 16 µg/mL |
| CC[C@H]1OC(=O)[C@H](C)[C@@H](OC2C[C@@](C)(OC)[C@@H](O)[C@H](C)O2)[C@H](C)[C@@H](O[C@@H]2O[C@H](C)C[C@H](N(C)C)[C@H]2O)C(C)(O)C[C@@H](C)/C(=N\OCCN(C)c2ccccc2)[C@H](C)[C@@H](O)[C@]1(C)O | 20096 | 25 µg/mL |
| CO[C@H]1/C=C/O[C@@]2(C)Oc3c(C)c(O)c4c(O)c(c5c(c4c3C2=O)NC2(CCN(CC(C)C)CC2)N=5)=NC(=O)/C(C)=C\C=C\[C@H](C)[C@H](O)[C@@H](C)[C@@H](O)[C@@H](C)[C@H](OC(C)=O)[C@@H]1C | N-976 (HIV+) | 0.25 µg/mL |

A second listing of 2 rows from above:

{"structure": "CC[C@H]1OC(=O)[C@H](C)[C@@H](OC2C[C@@](C)(OC)[C@@H](O)[C@H](C)O2)[C@H](C)[C@@H](O[C@@H]2O[C@H](C)C[C@H](N(C)C)[C@H]2O)C(C)(O)C[C@@H](C)/C(=N\\OCCN(C)c2ccccc2)[C@H](C)[C@@H](O)[C@]1(C)O", "strain or isolate": "20096", "result": "25 µg/mL"}
{"structure": "COc1cccc(CSc2ncnc3nc[nH]c23)c1", "strain or isolate": "NJ211", "result": ">12.8 µg/mL"}

Two numbers with a dash give a range or band.